Reference: patent US5506271A, “Method of treating papilloma virus infection using hypericin” (New York University, priority 1993, dated 1996)

Test system: RadLV
Assay: 0.1% SDS denaturation / SDS-PAGE and sucrose gradient of hypericin-treated RadLV
Conditions: 35S-methionine labelled RadLV

How did the “behaviour of treated virus on SDS-polyacrylamide gel electrophoresis / sucrose gradient” value turn out when `Cc1cc(O)c2c(=O)c3c(O)cc(O)c4c5c(O)cc(O)c6c(=O)c7c(O)cc(C)c8c1c2c(c34)c(c78)c65` [hypericin] was run?
Its value is “aggregates of virus components can be observed to accumulate at the top of the gel; also recorded: hypericin comigrates with the virus particles”.

Entries after “also recorded” stand apart in the source; their conditions may differ.
